Laboratory results: BindingDB's records for doi:10.7270/Q29Z93G0 (Nmmlsc, 2012)

Amino acid sequences for entries named in this document (tags omitted). Residues count along the entry.
UniProt P0DPI1, 2-448 limits assumed: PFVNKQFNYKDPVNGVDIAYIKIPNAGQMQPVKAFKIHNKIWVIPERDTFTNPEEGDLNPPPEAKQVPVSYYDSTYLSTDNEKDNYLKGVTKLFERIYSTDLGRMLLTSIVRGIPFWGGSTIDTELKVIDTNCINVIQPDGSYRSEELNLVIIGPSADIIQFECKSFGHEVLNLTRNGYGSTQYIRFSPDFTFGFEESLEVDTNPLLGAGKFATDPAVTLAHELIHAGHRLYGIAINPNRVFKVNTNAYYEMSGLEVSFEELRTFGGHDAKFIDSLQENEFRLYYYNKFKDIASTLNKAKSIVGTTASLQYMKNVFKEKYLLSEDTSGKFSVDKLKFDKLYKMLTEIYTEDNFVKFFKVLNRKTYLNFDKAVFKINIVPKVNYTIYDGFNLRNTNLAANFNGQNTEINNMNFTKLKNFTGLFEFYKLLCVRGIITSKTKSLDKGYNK

Molecular target: Botulinum neurotoxin type A (Clostridium botulinum (strain Hall / ATCC 3502 / NCTC 13319 / Type A), UniProt P0DPI1)

Fc1ccccc1C1CC(c2ccccc2)=NN1c1ccccc1 (stereo unspecified) [VU0467047-1]
EC50: > 20 µM
